A mixed list of measured activities; the numbers were collected in NIAID ChemDB.

Shared fields: tests in culture

Two numbers with a dash give a range or band.

SMILES	agent	strain	cell line	endpoint	dose	value
CCCCCCCCCCCCCCCCCCNc1nc(=O)c2ncn([C@@H]3O[C@H](CO)[C@@H](O)[C@H]3O)c2c(=O)[nH]1	Japanese encephalitis virus		HepG2.2.15	EC50		>500 µM
Nc1ncnc2c1ncn2[C@@H]1C=C(CO)[C@@H](O)[C@H]1O	Junin virus			MIC		0.3 µg/mL
Nc1nc2c(ncn2COC(CO)CO)c(=O)[nH]1	Vaccinia virus		HFF	EC50		>392 µM
CC12CC3CC(C)(C1)CC(N)(C3)C2	Influenza A virus	H2N2 A/Singapore/1/57	MDCK	inhibition	8 µg/mL	100%
COc1c(C)c2c(c(O)c1C/C=C(\C)CCC(=O)O)C(=O)OC2	Camelpox virus	Somalia wild type	VERO 76	EC50		2.5 µM
Nc1nccc2c1ncn2[C@@H]1O[C@H](CO)[C@@H](O)[C@H]1O	Junin virus	XJCL3	VERO	EC50		2.2 µg/mL
[NH3+]C1CCC(C23CC4CC(CC(C4)C2)C3)CC1	Influenza A virus	H2N2 A/Singapore/1/57	MDCK	inhibition	2 µg/mL	100%
NC12CC3CC(CC(C3)C1)C2	Influenza A virus	H2N2 Takathuki/4/65	MDCK	EC50		0.19 µg/mL
COc1c(C)c2c(c(O)c1C/C=C(\C)CCC(=O)O)C(=O)OC2	Monkeypox virus		VERO 76	EC50		0.8 µM
CN(C)C12CC3CC(CC(C3)C1)C2	Influenza A virus	H2N2 A/Singapore/1/57	MDCK	inhibition	0.5 µg/mL	100%
Nc1ccn(C[C@H]2COP(=O)(O)CO2)c(=O)n1	Cowpox virus	Brighton	HFF	EC50		48.3 µM
Nc1ccn(C[C@@H](CO)OCP(=O)(O)O)c(=O)n1	Camelpox virus	Somalia wild type	VERO 76	EC50		2.3 µM
NCCC12CC3CC(C1)CC(CCN)(C3)C2	Influenza A virus	H2N2 A/Singapore/1/57	MDCK	inhibition	1 µg/mL	100%
CCSc1nsc(-c2ccccc2)c1C#N	Poliovirus	Brunhilde (type 1)	HEP-2	EC50		0.1 µg/mL
Nc1nc(=O)c2ncn([C@@H]3C[C@H](O)[C@@H](CO)O3)c2c(=O)[nH]1	Japanese encephalitis virus		HepG2.2.15	EC50		10–15 µM
N#Cc1c(N2CCCC2)nsc1-c1ccccc1	Poliovirus	Brunhilde (type 1)	HEP-2	EC50		0.1 µg/mL
Nc1ccn(C[C@H]2COP(=O)(O)CO2)c(=O)n1	Camelpox virus	Somalia wild type	VERO 76	EC50		2.2 µM
Nc1nc(N)c2ncn(CCOCP(=O)(O)O)c2n1	Vaccinia virus			MIC		20 µg/mL
CSc1nsc(-c2ccccc2)c1C(N)=O	Poliovirus	Brunhilde (type 1)	HEP-2	EC50		>250 µg/mL
NC(=O)c1ncn([C@@H]2O[C@H](CO)[C@@H](O)[C@H]2O)n1	Japanese encephalitis virus	Nakayama	VERO 76	EC50		65 µg/mL
Nc1nc(=O)c2ncn(COCCOCc3ccccc3)c2c(=O)[nH]1	Japanese encephalitis virus		HepG2.2.15	EC50		100 µM
O=c1[nH]cnc2c1ncn2[C@H]1CC[C@@H](CO)O1	Vaccinia virus		HFF	EC50		>423 µM
OCCN(CCO)C12CC3CC(CC(C3)C1)C2	Influenza A virus	H2N2 A/Singapore/1/57	MDCK	inhibition	4 µg/mL	100%
O=c1cnn([C@@H]2O[C@H](CO)[C@@H](O)[C@H]2O)c(=O)[nH]1	Monkeypox virus		3T3	EC50		6.1 µM
Nc1ncnc2c1ncn2C[C@H](O)CO	Junin virus	XJCL3	VERO	EC50		14 µg/mL
Nc1nc2c(ncn2COCCO)c(=O)[nH]1	Vaccinia virus		HFF	EC50		>144 µM
O=C1Nc2nc[nH]c2C(=O)N(Cc2ccccc2)N1	Japanese encephalitis virus		HepG2.2.15	EC50		>500 µM
CCCCCCCCCN1[C@H](CN)[C@@H](O)[C@H](O)[C@H]1CO	Japanese encephalitis virus			EC50		>10 µM
Nc1ccn(C[C@@H](CO)OCP(=O)(O)O)c(=O)n1	Variola virus		BSC	EC50		8 µM
CCCCCCCCCCCCCCCCOCCCOP1(=O)CO[C@@H](Cn2ccc(N)nc2=O)CO1	Vaccinia virus	Copenhagen	HFF	EC50		3.8 µM
Cn1c(O)c(N=NC(N)=S)c2ccccc21	Monkeypox virus		VERO	EC50		141 µM
Nc1ccn(C[C@@H](CO)OCP(=O)(O)O)c(=O)n1	Cowpox virus		VERO	EC50		45 µM
c1ccc(N=Nc2ccccc2)cc1	Junin virus		VERO	EC50		19.7 µM
CC(C)C12CC3CC(CC([NH3+])(C3)C1)C2	Influenza A virus	H2N2 A/Singapore/1/57	MDCK	inhibition	1 µg/mL	100%
NC(=O)c1c[se]c([C@@H]2O[C@H](CO)[C@@H](O)[C@H]2O)n1	Yellow fever virus	Asibi	VERO	EC50		0.005 µg/mL
Nc1ncnc2c1ccn2[C@@H]1O[C@H](CO)[C@H](O)[C@H]1O	Junin virus	XJCL3	VERO	EC50		3.1 µg/mL
O=C1NNC(=O)c2[nH]cnc2N1	Japanese encephalitis virus		HepG2.2.15	EC50		>500 µM
CN(C)c1nsc(-c2ccccc2)c1C#N	Poliovirus	Brunhilde (type 1)	HEP-2	EC50		0.2 µg/mL
CN(C)C(=O)/N=N/C(=O)N(C)C	Junin virus		VERO	EC50		>100 µM
Nc1ncnc2c1ccn2[C@@H]1O[C@H](CO)[C@@H](O)[C@H]1O	Junin virus	XJCL3	VERO	EC50		0.05 µg/mL
CC1N(N)C12C1CC3CC(C1)CC2C3	Influenza A virus	H2N2 A/Singapore/1/57	MDCK	inhibition	1 µg/mL	100%
CC(C)COC(=O)C(O)Cn1cnc2c(N)ncnc21	Junin virus	XJCL3	VERO	EC50		9 µg/mL
O=c1cnn([C@@H]2O[C@H](CO)[C@@H](O)[C@H]2O)c(=O)[nH]1	Yellow fever virus	17D	VERO	EC90		1.3 µg/mL

Again, the opening 6 rows:

SMILES | agent | strain | cell line | endpoint | dose | value
CCCCCCCCCCCCCCCCCCNc1nc(=O)c2ncn([C@@H]3O[C@H](CO)[C@@H](O)[C@H]3O)c2c(=O)[nH]1 | Japanese encephalitis virus |  | HepG2.2.15 | EC50 |  | >500 µM
Nc1ncnc2c1ncn2[C@@H]1C=C(CO)[C@@H](O)[C@H]1O | Junin virus |  |  | MIC |  | 0.3 µg/mL
Nc1nc2c(ncn2COC(CO)CO)c(=O)[nH]1 | Vaccinia virus |  | HFF | EC50 |  | >392 µM
CC12CC3CC(C)(C1)CC(N)(C3)C2 | Influenza A virus | H2N2 A/Singapore/1/57 | MDCK | inhibition | 8 µg/mL | 100%
COc1c(C)c2c(c(O)c1C/C=C(\C)CCC(=O)O)C(=O)OC2 | Camelpox virus | Somalia wild type | VERO 76 | EC50 |  | 2.5 µM
Nc1nccc2c1ncn2[C@@H]1O[C@H](CO)[C@@H](O)[C@H]1O | Junin virus | XJCL3 | VERO | EC50 |  | 2.2 µg/mL

Inhibition is in % at the dose shown (toxicity tests: loss of growth or viability). Blank or dashed fields: not listed here. ECn is the concentration giving n% inhibition of infection, replication or growth. Conditions beyond the fields shown may differ between rows.